Measured values from several laboratories, pooled; numbers as filed in NIAID ChemDB.

Shared fields: tests in culture

Conditions beyond the fields shown may differ between rows.

| smiles | species | strain or isolate | cells | read by | setting | measure | tested at | result |
|---|---|---|---|---|---|---|---|---|
| CCO/C(=N/NC(=O)NCc1ccc(C)cc1)C(C)(O)c1ccc(Cl)c(Cl)c1 | Plasmodium falciparum | 3D7 | - | hypoxanthine uptake / radiometric | - | inhibition | 5 µM | 15% |
| CCCCCCCCCCCCCC#CC(=O)O | Plasmodium berghei | - | Huh7 | resazurin / fluorescence | - | EC50 | - | 0.48 µg/mL |
| CC(C)(C)c1cc(C(=O)Nc2nc(CN)cs2)n(Cc2ccccc2)n1 | Plasmodium berghei | K1 | - | - | - | EC50 | - | 0.08 µM |
| CCOC(=O)N/N=C(/OCc1ccc(Cl)cc1)C(C)(O)c1ccc(Cl)cc1 | Plasmodium falciparum | 3D7 | - | hypoxanthine uptake / radiometric | - | inhibition | 5 µM | 4% |
| CC(C)Nc1nc2cc(-c3ccc(Cl)cc3)sc2c(=O)[nH]1.O=C(O)/C=C/C(=O)O | Plasmodium yoelii | - | - | fluorescence | - | EC50 | - | 0.06 µM |
| C=C[C@H]1CN2CC[C@H]1C[C@H]2[C@H](O)c1ccnc2ccc(OC)cc12 | Plasmodium falciparum | W2 | - | - | 72 h | inhibition | 0.016 µg/mL | 75% |
| CN(Cc1ccc(F)cc1)C(=O)c1c[n+]2c(cn1)CN=C2c1ccc(C(F)(F)F)cc1 | Plasmodium yoelii | - | - | SYBR Green | - | EC50 | - | >10 µM |
| Clc1ccc2c(=Nc3ccc(-c4ccccc4)cc3)ccn(CCCN3CCCCC3)c2c1 | Plasmodium berghei | - | Huh7 | luciferase | - | EC50 | - | >1 µM |
| C[C@H]1CCCC(C[C@@H]2Cc3cc(O)cc(O)c3C(=O)O2)O1 | Plasmodium yoelii | - | - | SYBR Green | - | EC50 | - | 0.04 µM |
| Cc1nc2c(OC(F)F)cccc2n1-c1ccc(C(=O)NC2CC2)s1 | Plasmodium berghei | - | - | luciferase | - | EC50 | - | 0.084 µM |
| CCN(CC)CCCCn1ccc(=Nc2ccc(-c3ccccc3)cc2)c2ccc(C(F)(F)F)cc21 | Plasmodium berghei | - | Huh7 | luciferase | - | EC50 | - | >1 µM |
| CC(C)(C)OC(=O)N[C@@H](CCCNC(=O)OCc1ccccc1)C(=O)N[C@@H](Cc1ccccc1)C(=O)OC(C)(C)C | Plasmodium berghei | ANKA 2.34 | Erythrocytes | schizont maturation | - | EC50 | - | 33.88 µM |
| N#Cc1nc2c(-c3nc4ccccc4[nH]3)c(N)n(CCc3cnc[nH]3)c2nc1C#N | Plasmodium falciparum | NF54 | Erythrocytes | hypoxanthine uptake / radiometric | - | EC50 | - | 0.12 µM |
| CCN(CC)CCCn1ccc(=Nc2ccc(-c3ccccc3)cc2)c2ccc(C(F)(F)F)cc21 | Plasmodium berghei | - | Huh7 | luciferase | - | EC50 | - | >1 µM |
| NC1=Nc2ccc(Cl)cc2C1(O)c1ccccc1 | Plasmodium spp. | PF 3D7 | - | fluorescence | - | EC50 | - | 200 nM |
| N#Cc1nc2c(-c3nc4ccccc4[nH]3)c(N)n(CCCC(F)(F)F)c2nc1C#N | Plasmodium falciparum | NF54 | Erythrocytes | hypoxanthine uptake / radiometric | - | EC50 | - | 0.74 µM |
| CCN(CC)CCN1C(=O)c2ccccc2NC1c1ccc(Br)cc1 | Plasmodium berghei | ANKA | - | luciferase | - | EC50 | - | 0.46 µM |
| CCNC(=S)N/N=C(/OCC)C(C)(O)c1ccc2ccccc2c1 | Plasmodium falciparum | 3D7 | - | hypoxanthine uptake / radiometric | - | inhibition | 5 µM | 7% |
| NCCC1=c2c(O)c3c(c(O)c2N=C1)=NC=CS3(=O)=O | Plasmodium falciparum | 3D7 | - | - | - | MIC | - | 0.051 µM |
| CCCCN1C(=O)c2ccccc2NC1c1ccc(Cl)cc1 | Plasmodium berghei | ANKA | - | luciferase | - | EC50 | - | >20 µM |
| CC[C@H]1OC(=O)[C@H](C)[C@@H](OC2C[C@@](C)(OC)[C@@H](O)[C@H](C)O2)[C@H](C)[C@@H](OC2O[C@H](C)C[C@H](N(C)C)[C@H]2O)[C@](C)(OC2C[C@@H](N(C)C)[C@@H](O)[C@H](C)O2)C[C@@H](C)C(=O)[C@H](C)[C@@H](O)[C@]1(C)O | Plasmodium falciparum | 3D7 | RBC | fluorescence | 48 h | EC50 | - | 9.7 µM |
| CCN(CC)CCN1C(=O)c2ccccc2NC1c1ccc(OC)c(COc2ccc(F)cc2)c1 | Plasmodium berghei | ANKA | - | luciferase | - | EC50 | - | 2.5 µM |
| O=c1c(-c2ccc(O)cc2)coc2cc(OC3OC(CO)C(O)C(O)C3O)cc(O)c12 | Plasmodium berghei | GFP-Luc | Huh7 | resazurin | - | EC50 | - | 20 µM |
| CCCO/C(=N/NC(=O)OCC)C(C)(O)c1ccc2ccccc2c1 | Plasmodium falciparum | 3D7 | - | hypoxanthine uptake / radiometric | - | inhibition | 5 µM | 85% |
| O=C1c2ccccc2NC(c2ccc(Br)cc2)N1c1ccco1 | Plasmodium berghei | ANKA | - | luciferase | - | EC50 | - | >20 µM |
| CCO/C(=N/NC(=O)OC)C(C)(O)c1ccc(Cl)c(C)c1 | Plasmodium falciparum | 3D7 | - | hypoxanthine uptake / radiometric | - | inhibition | 5 µM | 72% |
| Clc1ccc2c(=Nc3ccccc3)ccn(CCCN3CCCCC3)c2c1 | Plasmodium berghei | - | Huh7 | luciferase | - | EC50 | - | >1 µM |
| CC[C@H]1OC(=O)[C@H](C)[C@@H](OC2C[C@@](C)(OC)[C@@H](O)[C@H](C)O2)[C@H](C)[C@@H](OC2O[C@H](C)C[C@H](N(C)C)[C@H]2O)[C@](C)(O)C[C@@H](C)CN(C)[C@H](C)[C@@H](O)[C@]1(C)O | Plasmodium falciparum | W2 Mef | RBC | fluorescence | 48 h | EC50 | - | 18.9 µM |
| CCO/C(=N/NC(=O)OCc1ccccc1)C(C)(O)c1ccc(C)cc1 | Plasmodium falciparum | 3D7 | - | hypoxanthine uptake / radiometric | - | inhibition | 5 µM | 19% |

Repeating the final 3 entries:

{"smiles": "Clc1ccc2c(=Nc3ccccc3)ccn(CCCN3CCCCC3)c2c1", "species": "Plasmodium berghei", "cells": "Huh7", "read by": "luciferase", "measure": "EC50", "result": ">1 µM"}
{"smiles": "CC[C@H]1OC(=O)[C@H](C)[C@@H](OC2C[C@@](C)(OC)[C@@H](O)[C@H](C)O2)[C@H](C)[C@@H](OC2O[C@H](C)C[C@H](N(C)C)[C@H]2O)[C@](C)(O)C[C@@H](C)CN(C)[C@H](C)[C@@H](O)[C@]1(C)O", "species": "Plasmodium falciparum", "strain or isolate": "W2 Mef", "cells": "RBC", "read by": "fluorescence", "setting": "48 h", "measure": "EC50", "result": "18.9 µM"}
{"smiles": "CCO/C(=N/NC(=O)OCc1ccccc1)C(C)(O)c1ccc(C)cc1", "species": "Plasmodium falciparum", "strain or isolate": "3D7", "read by": "hypoxanthine uptake / radiometric", "measure": "inhibition", "tested at": "5 µM", "result": "19%"}

Inhibition is in % at the dose shown (toxicity tests: loss of growth or viability). An empty or dashed field is not shown. ECn is the concentration giving n% inhibition of infection, replication or growth.